PubChem BioAssay AID1224833, University of Georgia, 2016

Test: 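Human genes whose knock-down alters rotavirus replication in monkey cells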 (primary screen)
Cells: monkey MA104 kidney cells
Reagent: siRNA pool against human genes, 50 nM
Time to read-out: 48 h knock-down before infection; read 24 h after infection
Challenge: infection with rotavirus strain RV3 two days after transfection; infectious dose for this stage not given
Measured: 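Rotavirus antigen per well by fluorescent immunoassay, normalised to non-targeting control wells on each plate and given as a standard z-score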
Reading the numbers: z-score vs non-targeting control: higher = more rotavirus replication than with non-targeting control
Call rule: In these data the active calls have z-score vs non-targeting control at about -1 or lower, or at about 1 or higher
Calls: active = z-score beyond 1 either way; inactive = z-score within 1 of zero
The deposit covers about 12,000 reagents; this is a part drawn at random. Of all reagents, about 5,600 (46%) got an active call. 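Active calls cover z-scores past 1 in both directions, so they include lowered as well as raised rotavirus replication.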 Entries without a mark were called inactive.

gene knocked down	z-score vs non-targeting control
TSPYL6	-1.88 (active)
TMEM156	-1.17 (active)
PCDHGB7	-0.736
NRSN1	-0.637
GZMA	-0.602
SERPINF1	1.29 (active)
MARVELD3	1.15 (active)
COL22A1	1.22 (active)
ATP6V1C1	-1.82 (active)
ACADM	-3.01 (active)
PIGS	-0.341
FKTN	0.76
GPCPD1	-1.98 (active)
OGFOD2	-1.21 (active)
HYLS1	-0.486
RAB5IF	0.95
PGAP1	1.71 (active)
TBCEL	0.712
POLR1A	-1.24 (active)
DIP2C	0.401
STX1A	-1.19 (active)
ZFP1	0.0561
RAB5C	1 (active)
SLC35D2	0.303
IFT140	-0.559

The list goes on, starting with the last 9 of the part before.
gene knocked down	z-score vs non-targeting control
PGAP1	1.71 (active)
TBCEL	0.712
POLR1A	-1.24 (active)
DIP2C	0.401
STX1A	-1.19 (active)
ZFP1	0.0561
RAB5C	1 (active)
SLC35D2	0.303
IFT140	-0.559
MPZL3	-1.56 (active)
IPO11	0.646
LRP4	-0.161
SPART	-0.29
SCGB1D1	-0.927
MUC1	0.283
MRC2	-0.837
DSPP	-1.69 (active)
SUSD6	0.932
ARL10	-0.788
NDUFV1	1.5 (active)
VWCE	-1.33 (active)
FAM135B	2.11 (active)
ZFAND3	-0.905
RTF1	-0.859
NKAIN1	-1.24 (active)
NOP14	0.0819
NAP1L4	-0.751
RGS22	-0.961
NBN	-1.32 (active)
GLRX5	-2.18 (active)
CD68	-1.84 (active)
NAA80	-0.867
ALDH8A1	-0.773
CFAP184	1.68 (active)
CENPT	-2.26 (active)
CCL3L3	-0.0497
CD70	1.36 (active)
OR2T3	-2.34 (active)
ZNF608	-1.48 (active)
LIMS3	-0.681
TNFSF9	-0.115
KIF24	-0.094
CD40LG	-1.63 (active)
OR52J3	-0.447
WDR19	0.615
SMPD1	0.786
NDUFB6	-0.353
L1CAM-AS1	-0.776
TTC7A	1.54 (active)
SLC25A36	-1.18 (active)
PCDH7	-0.688
GHITM	1.08 (active)
RRP8	-0.445
TULP3	-0.912
LPIN1	0.793
PARD6G	-0.722
STOX1	-2.11 (active)
GRAMD1C	-0.655
RXFP1	-1.17 (active)
